The values that follow come from patent publication US4818687A (priority 1985, dated 1989).

The test system of data set [1] is anti-AFB1 IgM antibody immobilized upon Sepharose 4B. In words: Release of 3H-AFB1 with increasing concentrations of DMSO (Table III). The settings on record: for suitability as releasing agent: concentration of at least 50%.
Data set [2] relates to IgM antibody for AFB1. In words: Competitive RIA with 3H-AFB1 tracer: specificity of the IgM antibody (FIGS. 1 and 2). Conditions: for 50% inhibition value: competitive RIA, 3H-AFB1 tracer, FIG. 2, AFB1 and aflatoxin-DNA adducts.
Data set [3] concerns many animal species. Conditions: cited from earlier work.
Data set [4] relates to anti-AFB1 IgM antibody immobilized upon Sepharose 4B. The experiment in a line: Release of 3H-AFB1 tracer from anti-AFB1 IgM antibody affinity column by different eluants (Table I).
For data set [5] the test system is unchanged. In words: Re-use of the affinity column with a second 3H-AFB1 tracer aliquot (Table II).

With `CC(=O)N(C)C`, in data set [1], the “suitability as releasing agent” value is recorded as “suitable for use in this methodology”.

With `CN(C)C=O`, in data set [1], the “suitability as releasing agent” value is given as “suitable for use in this methodology”.

As for `COc1cc2c(c3oc(=O)c4c(c13)CCC4=O)C1C(O2)OC(N(C=O)c2c(N)nc(N)[nH]c2=O)C1O` (stereo not drawn), in data set [2], the 50% inhibition value is 24.0 pmol. Moreover, the “times more sensitive in detecting the AF-FAPyr adduct than the AF-N7-Gua adduct” value in data set [2] (ratio from 50% inhibition values) is reported as “approximately four”.

Consider `COc1cc2c(c3oc(=O)c4c(c13)CCC4=O)C1C(O2)OC(n2cnc3nc(N)[nH]c(=O)c32)C1O` (stereo not drawn), for which the 50% inhibition value in data set [2] is 89.0 pmol.

In turn, `COc1cc2c(c3oc(=O)c4c(c13)CCC4=O)[C@@H]1C=CO[C@@H]1O2` [aflatoxin B1] showed a 50% inhibition value in data set [2] of 3.0 pmol. For the same compound, the “rate or quantity of AFB1 released from the affinity matrix” value in data set [1] (concentrations of DMSO greater than 50%) is recorded as “did not measurably increase the rate or quantity of AFB1 released”. Further, the toxicity in animals entry in data set [3] is “toxic, mutagenic and carcinogenic in many animal species”.

With ^3 H-aflatoxin B1, in data set [4] (50% DMSO), the “AFB1 tracer released from the affinity matrix” value worked out at 90%. Also, the “original tracer not adsorbed by the affinity matrix” value in data set [4] (effluent fraction No. 1) is on record as “about 10%”. Besides, the “release of tracer AFB1 by the IgM antibodies of the matrix” value in data set [4] (effluent fractions 2-6) is reported as “no substantial release”. Besides, the “% of Original” value is ~ 10% in data set [5] (fraction 8, PBS); ~ 60% in data set [5] (fraction 9, 50% DMSO); ~ 30% in data set [5] (fraction 10, 1st PBS wash); ~ 0% in data set [5] (fraction 11, 2nd PBS wash). Further, the “AFB1 tracer released by the DMSO” value in data set [5] (fraction 9, second tracer aliquot) was “about 60%”. Moreover, the “tracer not retained by the affinity matrix” value in data set [5] (second tracer aliquot, approximately 24,486 cpm) is recorded as “approximately 10%”. The “release of 3H-AFB1 from the affinity matrix” value in data set [1] (prior to using a 50% solution of DMSO) is “no substantial release”.
